Results on one compound are retold here after ChEMBL document CHEMBL3351716, “Targeting the androgen receptor with steroid conjugates” (J Med Chem, 2014).

Experiment [1] deals with T1, Progesterone receptor (Homo sapiens) (UniProt P06401).
T1 sequence (whole entry): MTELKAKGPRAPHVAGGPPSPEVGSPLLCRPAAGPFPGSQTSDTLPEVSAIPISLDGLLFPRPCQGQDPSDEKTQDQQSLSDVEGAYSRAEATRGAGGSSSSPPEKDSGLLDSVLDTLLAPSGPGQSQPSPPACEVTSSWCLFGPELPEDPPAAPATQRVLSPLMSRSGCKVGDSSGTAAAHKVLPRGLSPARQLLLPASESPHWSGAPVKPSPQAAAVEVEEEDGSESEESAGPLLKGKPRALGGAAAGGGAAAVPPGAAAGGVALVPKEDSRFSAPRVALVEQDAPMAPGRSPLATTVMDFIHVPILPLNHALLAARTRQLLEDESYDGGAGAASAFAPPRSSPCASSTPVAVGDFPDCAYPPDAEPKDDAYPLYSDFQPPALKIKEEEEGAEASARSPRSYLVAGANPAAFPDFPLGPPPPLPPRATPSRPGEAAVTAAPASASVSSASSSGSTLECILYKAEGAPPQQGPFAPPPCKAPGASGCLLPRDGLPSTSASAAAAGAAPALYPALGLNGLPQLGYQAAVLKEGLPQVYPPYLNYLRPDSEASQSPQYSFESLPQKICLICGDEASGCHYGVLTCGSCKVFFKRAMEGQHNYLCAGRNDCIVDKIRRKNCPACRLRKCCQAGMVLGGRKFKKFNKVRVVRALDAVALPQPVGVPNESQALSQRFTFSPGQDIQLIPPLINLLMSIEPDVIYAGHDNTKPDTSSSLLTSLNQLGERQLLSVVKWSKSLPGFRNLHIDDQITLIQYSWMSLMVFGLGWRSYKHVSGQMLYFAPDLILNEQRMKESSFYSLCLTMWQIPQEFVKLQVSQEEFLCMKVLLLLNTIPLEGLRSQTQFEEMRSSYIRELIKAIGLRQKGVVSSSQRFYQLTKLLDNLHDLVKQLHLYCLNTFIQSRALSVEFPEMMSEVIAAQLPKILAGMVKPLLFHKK
Kind of experiment: Binding affinity to progesterone receptor (unknown origin) by radiometric competitive assay.

Experiment [2] concerns the target T2, Androgen receptor (Homo sapiens) (UniProt P10275).
T2 sequence (whole entry): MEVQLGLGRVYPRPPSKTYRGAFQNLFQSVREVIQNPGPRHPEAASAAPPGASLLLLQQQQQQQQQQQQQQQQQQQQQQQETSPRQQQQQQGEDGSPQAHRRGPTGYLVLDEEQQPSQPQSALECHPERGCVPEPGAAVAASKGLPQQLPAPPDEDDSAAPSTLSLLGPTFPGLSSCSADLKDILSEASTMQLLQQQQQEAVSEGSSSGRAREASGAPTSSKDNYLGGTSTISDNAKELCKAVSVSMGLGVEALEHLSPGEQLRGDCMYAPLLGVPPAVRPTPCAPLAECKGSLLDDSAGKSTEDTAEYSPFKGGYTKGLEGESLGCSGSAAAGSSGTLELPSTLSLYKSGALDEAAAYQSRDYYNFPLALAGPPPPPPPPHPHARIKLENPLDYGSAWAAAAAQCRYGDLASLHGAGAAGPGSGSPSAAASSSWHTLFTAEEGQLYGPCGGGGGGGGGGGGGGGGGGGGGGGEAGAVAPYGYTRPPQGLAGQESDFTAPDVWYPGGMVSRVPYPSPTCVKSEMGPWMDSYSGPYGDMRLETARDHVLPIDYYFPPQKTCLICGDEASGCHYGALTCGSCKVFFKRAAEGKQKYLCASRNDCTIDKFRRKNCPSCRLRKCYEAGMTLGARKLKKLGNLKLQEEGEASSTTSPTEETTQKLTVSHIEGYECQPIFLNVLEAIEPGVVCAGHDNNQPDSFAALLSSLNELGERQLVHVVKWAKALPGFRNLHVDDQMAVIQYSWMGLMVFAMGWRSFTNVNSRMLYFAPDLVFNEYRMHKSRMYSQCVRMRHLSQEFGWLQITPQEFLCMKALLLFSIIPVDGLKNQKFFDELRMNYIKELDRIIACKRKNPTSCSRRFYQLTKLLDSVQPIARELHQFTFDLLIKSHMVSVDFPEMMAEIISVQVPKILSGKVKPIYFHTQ
Kind of experiment: Binding affinity to androgen receptor (unknown origin) by radiometric competitive assay.

On to `ClCCN(CCCl)c1ccccc1`, for which the results for the Activity in experiment [1] and in experiment [2] were 4.2% and 20%, respectively.
